A mixed list of measured activities; the numbers were collected in NIAID ChemDB.

All rows: cytotoxicity tests; cells: KB; endpoint: CC50

CCn is the concentration with n% toxicity to the cells. Lines come from different laboratories, so protocols vary.

smiles | value
C[C@@H]1O[C@@H](n2c(Cl)nc3cc(Cl)c(Cl)cc32)[C@H](O)[C@@H]1O | 60 µM
CCOC[C@H]1O[C@@H](n2c(Cl)nc3cc(Cl)c(Cl)cc32)[C@H](O)[C@@H]1O | 80 µM
OCC(CO)OCn1c(=S)[nH]c2cc(Cl)c(Cl)cc21 | >100 µM
CC(=O)O[C@H]1[C@H](n2c(Cl)nc3cc(Cl)c(Cl)cc32)OC[C@H]1OC(C)=O | 45 µM
CCSCc1c(Cl)nc2cc(Cl)c(Cl)cn12 | >100 µM
CN1N=C(N)c2cn([C@@H]3O[C@H](CO)[C@@H](O)[C@H]3O)c3nc(N)nc1c23 | 60 µM
OCC(CO)OCn1c(Cl)nc2cc(Cl)c(Cl)cc21 | >100 µM
OC[C@H]1O[C@@H](n2c(Cl)nc3cc(Cl)c(Cl)cc32)[C@H](O)[C@@H]1O | 210 µM
O=C1[C@@H](n2cc(-c3ccccc3)nn2)[C@@H](/C=C/c2ccccc2)N1C1CCCCC1 | 8.36 µM
Nc1nc2c(ncn2COC(CO)CO)c(=O)[nH]1 | ≥200 µM
OCCOCn1c(SCc2ccccc2)nc2c(Cl)cc(Cl)cc21 | >100 µM
CCOC[C@H]1O[C@@H](n2c(Cl)nc3cc(Cl)c(Cl)cc32)[C@H](OC(C)=O)[C@@H]1OC(C)=O | 60 µM
OCCOCn1c(Cl)nc2c(Cl)c(Cl)ccc21 | >100 µM
CC(C)Nc1nc2cc(Cl)c(Cl)cc2n1[C@H]1O[C@H](CO)[C@H](O)[C@@H]1O | >100 µM
COc1ccc(Cn2cc(C(N)=S)c3c(N)ncnc32)cc1 | 36 µM
CCCCOc1ccc(N2C(=O)CCNC2=S)cc1 | >1 µg/mL
Nc1nc2c(ncn2COC(CO)CO)c(=O)[nH]1 | >100 µM
Cc1cc(=O)[nH]c2c1ccc1ncc(C(=O)O)c(C)c12 | 16 µg/mL
OCCCOCc1c(Cl)nc2cc(Cl)c(Cl)cn12 | >100 µM
CNc1nc2c(Cl)c(Cl)ccc2n1COCCO | >100 µM
CCCCCOc1ccc(N2C(=O)CCNC2=S)cc1 | >1 µg/mL
Cc1ccc(N2C(=O)[C@@H](n3cc(-c4ccccc4)nn3)[C@H]2/C=C/c2ccccc2)cc1 | 89.15 µM
CC(=O)O[C@@H]1[C@H](OC(C)=O)[C@@H](CN=[N+]=[N-])O[C@H]1n1c(Cl)nc2cc(Cl)c(Cl)cc21 | 70 µM
OCCOCc1c(Cl)nc2cc(Cl)c(Cl)cn12 | >100 µM
O=C1[C@@H](n2cc(-c3ccccc3)nn2)[C@@H](/C=C/c2ccccc2)N1c1ccc(Cl)cc1 | 84.17 µM
CC(C)Nc1nc2cc(Cl)c(Cl)cc2n1[C@@H]1OC[C@@H](O)[C@H]1O | >100 µM
COC[C@H]1O[C@@H](n2c(Cl)nc3cc(Cl)c(Cl)cc32)[C@H](O)[C@@H]1O | 90 µM
OCCOCn1c(=S)[nH]c2c(Cl)cc(Cl)cc21 | >100 µM
CCCCOC[C@H]1O[C@@H](n2c(Cl)nc3cc(Cl)c(Cl)cc32)[C@H](O)[C@@H]1O | 60 µM
CN1N=C(N)c2cn([C@@H]3O[C@H](CO)[C@@H](O)[C@H]3O)c3nc(-c4ccccc4)nc1c23 | >100 µM
CC(=O)O[C@@H]1[C@H](OC(C)=O)[C@@H](CCl)O[C@H]1n1c(Cl)nc2cc(Cl)c(Cl)cc21 | 90 µM
CCOc1ccc(N2C(=O)CCNC2=S)cc1 | >1 µg/mL
OCCOCn1c(Br)nc2c(Cl)cc(Cl)cc21 | >100 µM
O[C@@H]1[C@H](O)CO[C@H]1c1c(Cl)nc2cc(Cl)c(Cl)cn12 | >100 µM
[N-]=[N+]=NC[C@H]1O[C@@H](n2c(Cl)nc3cc(Cl)c(Cl)cc32)[C@H](O)[C@@H]1O | 70 µM
O[C@@H]1[C@H](O)CO[C@H]1n1c(Br)nc2cc(Cl)c(Cl)cc21 | 50 µM
CCCOc1ccc(N2C(=O)CCNC2=S)cc1 | >1 µg/mL
Nc1nc2c(Cl)c(Cl)ccc2n1COC(CO)CO | >100 µM
Cc1nc2c3c(cn([C@@H]4O[C@H](CO)[C@@H](O)[C@H]4O)c3n1)C(N)=NN2C | >100 µM
CCOC(=O)c1ccc(OCCC2CCN(c3ccc(C)nn3)CC2)cc1 | >13.35 µM
COc1c(O)c2c(c(O)c1CCOC(C)=O)CCC(OC)C2=O | 0.028 µg/mL
CSC[C@H]1O[C@@H](n2c(Cl)nc3cc(Cl)c(Cl)cc32)[C@H](OC(C)=O)[C@@H]1OC(C)=O | >100 µM
Nc1nc2c(ncn2COC(CO)CO)c(=O)[nH]1 | >100 µM

The last 3 rows once more:

smiles	value
COc1c(O)c2c(c(O)c1CCOC(C)=O)CCC(OC)C2=O	0.028 µg/mL
CSC[C@H]1O[C@@H](n2c(Cl)nc3cc(Cl)c(Cl)cc32)[C@H](OC(C)=O)[C@@H]1OC(C)=O	>100 µM
Nc1nc2c(ncn2COC(CO)CO)c(=O)[nH]1	>100 µM